Laboratory results taken from publication PMC5441103, “Antiviral activity of phenanthrenes from the medicinal plant Bletilla striata against influenza A virus” (BMC Complementary and Alternative Medicine, 2017).

Assays:
[1] = test system: influenza A/Sydney/5/97 (H3N2)
[2] = target: neuraminidase (NA) (Influenza A virus, UniProt Q80DL0); conditions: read-out: NA inhibitory activity IC50

**Q.** Which “Post-treatment SI (selective index; CC50mean/IC50mean)” value [1] does the source give for “2,2′–dyhydroxyl-4,4′,7,7′-9′,10′-dihydro-1,6′-di-phenanthrene [Compound 11]” here?
**A.** The value was 3.4.

**Q.** What about the “Simultaneous treatment SI (selective index; CC50mean/IC50mean)” value [1] of the same substance?
**A.** The value was 3.1.

**Q.** What about the IC50 [2] of the same substance?
**A.** Its IC50 is 57.6 ± 5.9 µM.
